Compound potency records, mixed from different reports. Data source: NIAID ChemDB in PubChem.

Shared fields: tests in culture; agent: HIV-1

An empty or dashed field is not shown. Conditions beyond the fields shown may differ between rows. ECn: concentration that inhibits the pathogen or its effect by n%.

structure	method	strain or isolate	cells	mutations	read-out	result
O=c1[nH]cnc2c1ncn2[C@H]1CC[C@@H](CO)O1	luciferase	Recombinant	HeLa	RT-M41L A62V S68N G112S V118I M184V	EC50	1.85 µM
Fc1cccc(F)c1C1SCc2nc3ccccc3n21	cytopathic effect / XTT	IIIB	CEM	RT-K103N	EC50	15.6 µM
Cc1cn([C@H]2C[C@H](N=[N+]=[N-])[C@@H](COP(=O)(O)OCc3ccccc3)O2)c(=O)[nH]c1=O			CEM + CEM-SS		EC50	<0.005 µM
Cc1cn([C@H]2C[C@H](N=[N+]=[N-])[C@@H](CO)O2)c(=O)[nH]c1=O	p24 / ELISA	D148/86	PBMC		EC50	0.02 µM
Cn1c2ccccc2c2c1cc(C#N)c(=O)n2-c1ccc([N+](=O)[O-])cc1	luciferase	Recombinant	HeLa	RT-A62T V118I M184V	EC50	0.428 µM
c1cc(CN2CCCNCCNCCCNCC2)ccc1CN1CCCNCCNCCCNCC1	cytopathic effect / MTT	AOM	MT-4		EC50	0.5 µM
CCc1c(CC23CC4CC(CC(C4)C2)C3)nc(SCC(=O)Nc2ccc(S(N)(=O)=O)cc2)[nH]c1=O	MTT / absorbance	RES056	MT-4		EC50	>12.25 µM
Cc1cn([C@H]2C[C@H](N=[N+]=[N-])[C@@H](CO)O2)c(=O)[nH]c1=O	cytopathic effect	IIIB	MT-4		EC50	0.0122 µM
Nc1nc(=O)n([C@@H]2CO[C@H](CO)S2)cc1F	p24	IIIB	U-937		EC50	0.6 µM
CC(C)CN(C[C@@H](O)[C@H](Cc1ccccc1)NC(=O)O[C@H]1CCOC1)S(=O)(=O)c1ccc(N)cc1	cytopathic effect / MTT	RF2802 (PR-V82F I84V)	MT-4	PR-V82F I84V	EC50	0.115 µM
CCN1C(=O)N(Cc2ccccc2)S(=O)(=O)c2cscc21	syncytia		CEM	RT-Y181C	EC50	>310.2 µM
O=C(CSc1nnnn1-c1cccc2ccccc12)Nc1ccccc1	p24		MT-4		EC50	<10 µM
Fc1cccc(F)c1[C@H]1SCc2nc3ccccc3n21	cytopathic effect	NDK	MT-4		EC50	0.55 µM
C[C@H](Cn1cnc2c(N)ncnc21)OCP(=O)(O)O	luciferase	Recombinant	HeLa	RT-M184V	EC50	0.5555 µM
Cc1cn([C@H]2C[C@H](N=[N+]=[N-])[C@@H](CO)O2)c(=O)[nH]c1=O	cytopathic effect / XTT	Site-directed mutant	MT-2	RT-K65R M184V	EC50	0.056 µM
Cc1cn([C@H]2C[C@H](N=[N+]=[N-])[C@@H](CO)O2)c(=O)[nH]c1=O	MTT / absorbance	IIIB	MT-4		EC50	0.0067 µM
Cc1ccnc2c1NC(=O)c1cccnc1N2C1CC1	RT activity	HX(RT-S156A)	MT-2	RT-S156A	EC50	0.04 µM
S=C(NCCc1cccs1)Nc1ccc(Br)cn1	p24	RT-V106A RT-MDR	MT-2		EC50	0.006 µM
CCc1c(CC23CC4CC(CC(C4)C2)C3)nc(SCC(=O)Nc2ccc(C)cc2[N+](=O)[O-])[nH]c1=O	MTT / absorbance	RES056	MT-4		EC50	>23.16 µM
Cc1cc(C)cc([C@]23SCCN2C(=O)c2ccccc23)c1	p24 / ELISA	D148/86	PBMC		EC50	0.009 µM
CC(C)(C)NC(=O)[C@@H]1C[C@@H]2CCCC[C@@H]2CN1C[C@@H](O)[C@H](Cc1ccccc1)NC(=O)[C@H](CC(N)=O)NC(=O)c1ccc2ccccc2n1	p24	NL4-3	MT-4	PR-M46I V82T I84V	EC50	<0.05 µM
Cc1cn([C@H]2C[C@H](N=[N+]=[N-])[C@@H](CO)O2)c(=O)[nH]c1=O	antigen	IIIB/LAI	CEM		EC50	0.003 µM
CCc1c(CC23CC4CC(CC(C4)C2)C3)nc(SCC(=O)Nc2ccccc2)[nH]c1=O	MTT / absorbance	RES056	MT-4		EC50	>15.88 µM
Cc1cc(C)c(-n2nnnc2SCC(=O)Nc2ccc(F)cc2[N+](=O)[O-])c(C)c1	p24		MT-4		EC95	<10 µM
Cc1c(CC23CC4CC(CC(C4)C2)C3)nc(SCC(=O)c2ccccc2)[nH]c1=O	MTT / absorbance	RES056	MT-4		EC50	>306 µM
Nc1ncnc2c1ncn2C=C1CC1CO			CEM + CEM-SS		EC50	17 µM
CCOCn1c(Cc2ccccc2)c(C(C)C)c(=O)[nH]c1=O	cytopathic effect	IIIB	CEM		EC50	0.003 µg/mL
Cn1cc(C(=O)O)c(=O)c2cc(F)c(N3CC=C(c4ccccc4)CC3)c(C(F)(F)F)c21	cytopathic effect / MTT	IIIB	CEM		EC50	0.062 µM
CN(C)C1=NS(=O)(=O)NC(Cc2ccc3ccccc3c2)=C1	MTT	IIIB	MT-4		EC50	>268 µM
CCc1c(CC23CC4CC(CC(C4)C2)C3)nc(SCC(=O)Nc2ccc(C(N)=O)cc2)[nH]c1=O	MTT / absorbance	RES056	MT-4		EC50	≥33.5 µM
Cc1cn([C@H]2C[C@H](N=[N+]=[N-])[C@@H](CO)O2)c(=O)[nH]c1=O	cytopathic effect / MTT	TIBO-resistant L100I (RT-L100I)	MT-4	RT-L100I	EC50	0.01 µM
Cc1cc(C)c(-n2nnnc2SCC(=O)Nc2cccc3cccnc23)c(C)c1	p24		MT-4		EC95	<10 µM
CC(C)(C)NC(=O)[C@@H]1CN(Cc2cccnc2)CCN1C[C@@H](O)C[C@@H](Cc1ccccc1)C(=O)N[C@H]1c2ccccc2C[C@H]1O	cytopathic effect / MTT	NL4-3	MT-4	PR-M46I V82T I84V 10R 63P	EC50	0.209 µM
Cc1cn([C@H]2C[C@H](N=[N+]=[N-])[C@@H](CO)O2)c(=O)[nH]c1=O	cytopathic effect / XTT	IIIB	Macrophage		EC50	0.026 µM
CC(C)=CCN1Cc2cc(Cl)cc3[nH]c(=S)n(c23)C[C@@H]1C	cytopathic effect / XTT	RF	CEM + CEM-SS		EC50	0.06 µM
Cc1cc(C)c(NC2=NS(=O)(=O)NC(Cc3ccccc3)=C2)c(C)c1	MTT	IIIB	MT-4		EC50	>191 µM
Cc1ccnc2c1NC(=O)c1cccnc1N2C1CC1	syncytia	RF	MT-4		EC50	0.04 µM
Cc1cn([C@H]2C[C@H](N=[N+]=[N-])[C@@H](CO)O2)c(=O)[nH]c1=O	cytopathic effect	C-1 (RT-K101E)	CEM	RT-K101E	EC50	0.0025 µM
Cc1cn([C@H]2C[C@H](N=[N+]=[N-])[C@@H](CO)O2)c(=O)[nH]c1=O			CEM + CEM-SS		EC50	0.003 µM
Cc1cc(C)c(-n2nnnc2SCC(=O)Nc2cccc3c2C(=O)NC3=O)c(C)c1	p24		MT-4		EC50	<10 µM
CC(C)[C@H](NC(=O)N(C)Cc1ccccn1)C(=O)N[C@@H](Cc1ccccc1)[C@H](O)[C@@H](O)[C@H](Cc1ccccc1)NC(=O)[C@@H](NC(=O)N(C)Cc1ccccn1)C(C)C	cytopathic effect / trypan blue	IIIB	ATH8		EC50	<0.9 µM
Cc1cn([C@H]2C[C@H](N=[N+]=[N-])[C@@H](CO)O2)c(=O)[nH]c1=O	cytopathic effect / MTT	AMD3100-resistant	MT-4		EC50	0.005 µM
Cc1cc(C)c(-n2nnnc2SCC(=O)Nc2ccc(-n3cccn3)cc2)c(C)c1	p24		MT-4		EC50	<10 µM
CC1=C(C(=O)Nc2ccc(Cl)c(C(=O)OC(C)C)c2)SCCO1	cytopathic effect / XTT	IIIB	CEM + CEM-SS		EC50	0.084 µM
CC(C)CN(C[C@@H](O)[C@H](Cc1ccccc1)NC(=O)[C@H](CC(N)=O)NC(=O)c1ccc2ccccc2n1)C(=O)NC(C)(C)C	p24	NL4-3	MT-4	PR-L10R M46I L63P 184V	EC50	<1.5 µM
Cc1cn([C@H]2C[C@H](N=[N+]=[N-])[C@@H](CO)O2)c(=O)[nH]c1=O	plaque count	HIVRTMC	HT4 + HT4-6C		EC50	0.24 µM
COc1c(O)c(Cl)c2c(c1OC)-c1c(c(Cl)c(O)c(OC)c1OC)C[C@H](C)[C@H](C)C2	syncytia	IIIB	SupT1 + Sup-T1		EC50	1.52 µM
Cc1cn([C@H]2C=C[C@@H](COP(=O)(O)O)O2)c(=O)[nH]c1=O			MT-4		EC50	0.71 µM
Cc1ccc(CN=C2C=C(Cc3ccc4ccccc4c3)NS(=O)(=O)N2)cc1	MTT	IIIB	MT-4		EC50	>144 µM
Cc1cn([C@H]2C[C@H](N=[N+]=[N-])[C@@H](CO)O2)c(=O)[nH]c1=O			CEM + CEM-SS		EC50	0.004 µM
Nc1nc(NC2CC2)c2ncn([C@H]3C=C[C@@H](CO)C3)c2n1	cytopathic effect / XTT	Site-directed mutant	MT-2	RT-K65R M184V	EC50	>3.44 µM
O=c1[nH]cnc2c1ncn2[C@H]1CC[C@@H](CO)O1	cytopathic effect	IIIB	MT-4		EC50	24.76 µM
COc1ccc(C(=O)CSc2nc(CC34CC5CC(CC(C5)C3)C4)c(C)c(=O)[nH]2)cc1	MTT / absorbance	IIIB	MT-4		EC50	2.55 µM
O=C1N(Cc2ccccc2)c2cscc2S(=O)(=O)N1Cc1ccccc1	syncytia		CEM	RT-E138K	EC50	≥10.4 µM
Cc1cn([C@H]2C=C[C@@H](COP(=O)(O)OCc3ccccc3)O2)c(=O)[nH]c1=O			CEM + CEM-SS		EC50	0.016 µM
N#CCN1C(=O)N(Cc2cccc(F)c2)S(=O)(=O)c2cscc21	syncytia	RF	MT-4		EC50	0.3 µM
Cc1ccnc2c1NC(=O)c1cccnc1N2C1CC1	cytopathic effect	E-2 (RT-V106A)	CEM	RT-V106A	EC50	0.35 µg/mL
Cc1cc(C)c(-n2nnnc2SCC(=O)Nc2cc(C)ccc2Cl)c(C)c1	p24		MT-4		EC50	<10 µM
Cc1cc(=O)c2ccc(N=C=S)cc2o1	p24 / ELISA	NL4-3	U-937		EC50	0.17 µM
CC(=O)c1cccc(-n2nnnc2SCC(=O)Nc2ccccc2Cl)c1	p24		MT-4		EC95	<10 µM
Nc1ccn([C@@H]2CO[C@H](CO)S2)c(=O)n1	p24	IIIB	U-937		EC50	0.3 µM
c1ccc2c(c1)sc1nccn12	cytopathic effect / XTT	IIIB	AA5		EC50	1.35 µM
Cc1cn([C@H]2C[C@H](N=[N+]=[N-])[C@@H](CO)O2)c(=O)[nH]c1=O	p24 / RT activity	RF	AA5		EC50	0.001 µM
CN(C)C=NC1=NN(C)c2ncnc3c2c1cn3[C@@H]1O[C@H](CO)[C@@H](O)[C@H]1O	syncytia / thymidine uptake		CEM + CEM-SS		EC50	0.026 µM
COc1c(O)c(I)c2c(c1OC)-c1c(c(I)c(O)c(OC)c1OC)C[C@H](C)[C@H](C)C2	syncytia	IIIB	SupT1 + Sup-T1		EC50	0.16 µM
Cc1cc(C)c(-n2nnnc2SCC(=O)Nc2cccc(F)c2C)c(C)c1	p24		MT-4		EC95	<10 µM
Cc1ccnc2c1NC(=O)c1cccnc1N2C1CC1	cytopathic effect / XTT	IIIB	Macrophage		EC50	0.39 µM
CC(C)=CCN1Cc2cc(Cl)cc3[nH]c(=S)n(c23)C[C@@H]1C			MT-4	RT-M41L T215Y A98G	EC50	<3 µM
O=c1[nH]cnc2c1ncn2[C@H]1CC[C@@H](CO)O1	RT activity	HX	MT-2		EC50	1.6 µM
CC1(C)[C@@H](O[C@H]2O[C@H](C(=O)O)[C@@H](O)[C@H](O)[C@H]2O[C@@H]2O[C@H](C(=O)O)[C@@H](O)[C@H](O)[C@H]2O)CC[C@]2(C)[C@H]3C(=O)C=C4[C@@H]5C[C@@](C)(C(=O)O)CC[C@]5(C)CC[C@@]4(C)[C@]3(C)CC[C@@H]12	ELISA	Clinical isolate GVK 4046	MT-4		EC50	<500 µg/mL
CC(=O)c1ccc(NC(=O)CSc2nc(CC34CC5CC(CC(C5)C3)C4)c(C)c(=O)[nH]2)c(Br)c1	MTT / absorbance	RES056	MT-4		EC50	>23.73 µM
Cc1cn([C@H]2C[C@H](N=[N+]=[N-])[C@@H](CO)O2)c(=O)[nH]c1=O	MTT	Clinical isolate	C8166	74V	EC50	0.00485 µM
COc1ccc(CN=C2C=C(Cc3ccccc3)NS(=O)(=O)N2)cc1	MTT	IIIB	MT-4		EC50	>300 µM
Cc1cn([C@H]2C=C[C@@H](CO)O2)c(=O)[nH]c1=O	cytopathic effect	DI-06.92 (HXB2 RT-K70R)	MT-4	RT-K70R	EC50	1.9 µM

The first 11 rows once more:

structure	method	strain or isolate	cells	mutations	read-out	result
O=c1[nH]cnc2c1ncn2[C@H]1CC[C@@H](CO)O1	luciferase	Recombinant	HeLa	RT-M41L A62V S68N G112S V118I M184V	EC50	1.85 µM
Fc1cccc(F)c1C1SCc2nc3ccccc3n21	cytopathic effect / XTT	IIIB	CEM	RT-K103N	EC50	15.6 µM
Cc1cn([C@H]2C[C@H](N=[N+]=[N-])[C@@H](COP(=O)(O)OCc3ccccc3)O2)c(=O)[nH]c1=O			CEM + CEM-SS		EC50	<0.005 µM
Cc1cn([C@H]2C[C@H](N=[N+]=[N-])[C@@H](CO)O2)c(=O)[nH]c1=O	p24 / ELISA	D148/86	PBMC		EC50	0.02 µM
Cn1c2ccccc2c2c1cc(C#N)c(=O)n2-c1ccc([N+](=O)[O-])cc1	luciferase	Recombinant	HeLa	RT-A62T V118I M184V	EC50	0.428 µM
c1cc(CN2CCCNCCNCCCNCC2)ccc1CN1CCCNCCNCCCNCC1	cytopathic effect / MTT	AOM	MT-4		EC50	0.5 µM
CCc1c(CC23CC4CC(CC(C4)C2)C3)nc(SCC(=O)Nc2ccc(S(N)(=O)=O)cc2)[nH]c1=O	MTT / absorbance	RES056	MT-4		EC50	>12.25 µM
Cc1cn([C@H]2C[C@H](N=[N+]=[N-])[C@@H](CO)O2)c(=O)[nH]c1=O	cytopathic effect	IIIB	MT-4		EC50	0.0122 µM
Nc1nc(=O)n([C@@H]2CO[C@H](CO)S2)cc1F	p24	IIIB	U-937		EC50	0.6 µM
CC(C)CN(C[C@@H](O)[C@H](Cc1ccccc1)NC(=O)O[C@H]1CCOC1)S(=O)(=O)c1ccc(N)cc1	cytopathic effect / MTT	RF2802 (PR-V82F I84V)	MT-4	PR-V82F I84V	EC50	0.115 µM
CCN1C(=O)N(Cc2ccccc2)S(=O)(=O)c2cscc21	syncytia		CEM	RT-Y181C	EC50	>310.2 µM